Results of unrelated studies side by side (data: NIAID ChemDB).

Common to all: tests in culture; species: Measles virus; method: plaque count; read-out: EC50

Neighbouring rows are from separate reports. ECn is the concentration giving n% inhibition of infection, replication or growth. Blank or dashed fields: not listed here.

compound,cell line,strain,value
CCCCOc1ccc(-c2snc(SC)c2C#N)cc1,HEP-2,Edmonston,10 µM
COc1cc(OC)c(/C=N/N=C(/N)NO)c(OC)c1.Cc1ccc(S(=O)(=O)O)cc1,VERO,-,>50 µM
COc1ccc(-c2snc(SC)c2C#N)cc1,HEP-2,Edmonston,>10 µM
CSc1nsc(-c2ccc(OCCCOc3ccc([N+](=O)[O-])cc3)cc2)c1C#N,HEP-2/L-929/VERO,-,>0.5 µM
N#Cc1cc(NC(=O)c2ccccc2)c(=O)n2c1[nH]c1ccccc12,VERO,Sugiyama,0.7 µg/mL
O=C(O)c1cn(/N=C/c2ccc(O)cc2)c(=O)c2ccccc12,HEP-2/L-929/VERO,Edmonston,>300 µM
COc1nsc(-c2ccccc2)c1C#N,HEP-2,Edmonston,>25 µM
O=C(O)c1cn(/N=C/c2ccc(Cl)cc2)c(=O)c2ccccc12,HEP-2/L-929/VERO,Edmonston,25 µM
CSc1nsc(-c2ccc(OCCc3ccccc3)cc2)c1C#N,HEP-2/L-929/VERO,-,10 µM
N#Cc1csnc1-c1ccccc1,HEP-2,Edmonston,>100 µM
CC(/C=N/n1cc(C(=O)O)c2ccccc2c1=O)=C\c1ccccc1,HEP-2/L-929/VERO,Edmonston,10 µM
CSc1nsc(SC)c1C#N,HEP-2,Edmonston,>12 µM
CN(C)c1ccc(/C=C/C=N/n2cc(C(=O)O)c3ccccc3c2=O)cc1,HEP-2/L-929/VERO,Edmonston,>150 µM
N#Cc1cc(C#N)c2[nH]c3ccccc3n2c1=O,VERO,Sugiyama,6.4 µg/mL
O=C(O)c1cn(/N=C/c2ccc(Br)cc2)c(=O)c2ccccc12,HEP-2/L-929/VERO,Edmonston,15 µM
Cc1ccc(S(=O)(=O)O)cc1.N/C(=N/N=C/c1ccc2c(c1)OCO2)NO,VERO,-,>50 µM
CSc1nsc(-c2ccc(OCCCOc3ccc(C#N)cc3)cc2)c1C#N,HEP-2/L-929/VERO,-,>2 µM
O=C(O)c1cn(/N=C/c2ccccc2)c(=O)c2ccccc12,HEP-2/L-929/VERO,Edmonston,48 µM
CSc1nsc(-c2ccc(OCCCc3ccccc3)cc2)c1C#N,HEP-2/L-929/VERO,-,10 µM
O=C(O)c1cn(/N=C/C=C/c2ccc([N+](=O)[O-])cc2)c(=O)c2ccccc12,HEP-2/L-929/VERO,Edmonston,25 µM
CSc1nsc(-c2ccc(OS(=O)(=O)c3ccc(C)cc3)cc2)c1C#N,HEP-2,Edmonston,>25 µM
CSc1nsc(-c2ccc(OCc3ccccc3)cc2)c1C#N,HEP-2/L-929/VERO,-,10 µM

Repeating the final 3 entries:

O=C(O)c1cn(/N=C/C=C/c2ccc([N+](=O)[O-])cc2)c(=O)c2ccccc12 ; cell line: HEP-2/L-929/VERO ; strain: Edmonston ; value: 25 µM
CSc1nsc(-c2ccc(OS(=O)(=O)c3ccc(C)cc3)cc2)c1C#N ; cell line: HEP-2 ; strain: Edmonston ; value: >25 µM
CSc1nsc(-c2ccc(OCc3ccccc3)cc2)c1C#N ; cell line: HEP-2/L-929/VERO ; value: 10 µM